Results as given in patent US20190298669A1 (priority 2018, published 2019).
Several values for one entry are separate records, joined by “and”; a condition that tells them apart may be missing. Identical values can stand only once.

Assays:
[1] = test system: A/Mississippi/3/2001 wild type (H1N1); type: cell-based
[2] = test system: A/Regensburg/D6/2009 (RB1, H1N1pdm09); settings: mouse, in vivo

For `CCOC(=O)C1=C[C@@H](OC(CC)CC)[C@H](NC(C)=O)[C@@H](N)C1` [oseltamivir], the “virus found after treatment” value [1] was “No virus was detectable” and the mice died [2] was 2/5 and 5/5.
